Results on one molecule are retold here after PMC11002603, “The mechanism behind tenuazonic acid-mediated inhibition of plant plasma membrane H^+-ATPase and plant growth” (2024).

Amino acid sequences for entries named in this document (tags omitted). Residues count along the entry.
UniProt P19456, 2-948 R880A limits assumed: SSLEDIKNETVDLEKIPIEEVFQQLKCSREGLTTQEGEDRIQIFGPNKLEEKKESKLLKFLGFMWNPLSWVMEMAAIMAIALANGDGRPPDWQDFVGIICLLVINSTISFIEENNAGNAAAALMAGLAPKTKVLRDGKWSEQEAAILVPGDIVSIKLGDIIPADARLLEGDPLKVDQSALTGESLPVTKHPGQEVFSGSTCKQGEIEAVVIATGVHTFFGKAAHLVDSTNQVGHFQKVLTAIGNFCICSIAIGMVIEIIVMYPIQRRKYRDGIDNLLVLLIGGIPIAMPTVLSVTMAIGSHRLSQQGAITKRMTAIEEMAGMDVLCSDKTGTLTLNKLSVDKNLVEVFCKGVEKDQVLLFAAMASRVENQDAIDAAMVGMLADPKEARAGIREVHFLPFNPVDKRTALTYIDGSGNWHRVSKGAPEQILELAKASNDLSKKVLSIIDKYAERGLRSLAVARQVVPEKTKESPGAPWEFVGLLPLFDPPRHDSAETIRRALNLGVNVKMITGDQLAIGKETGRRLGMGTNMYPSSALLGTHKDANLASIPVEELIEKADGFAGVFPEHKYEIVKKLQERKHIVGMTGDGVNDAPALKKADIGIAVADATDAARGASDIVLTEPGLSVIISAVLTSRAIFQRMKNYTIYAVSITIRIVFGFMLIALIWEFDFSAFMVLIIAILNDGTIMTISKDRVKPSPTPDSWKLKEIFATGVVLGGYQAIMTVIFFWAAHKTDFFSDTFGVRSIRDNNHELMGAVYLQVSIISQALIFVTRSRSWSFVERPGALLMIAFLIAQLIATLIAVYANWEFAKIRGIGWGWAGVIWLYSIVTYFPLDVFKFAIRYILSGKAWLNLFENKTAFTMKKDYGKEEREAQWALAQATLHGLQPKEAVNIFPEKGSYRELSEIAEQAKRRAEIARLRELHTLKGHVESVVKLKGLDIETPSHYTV
UniProt P19456, 2-948 limits assumed: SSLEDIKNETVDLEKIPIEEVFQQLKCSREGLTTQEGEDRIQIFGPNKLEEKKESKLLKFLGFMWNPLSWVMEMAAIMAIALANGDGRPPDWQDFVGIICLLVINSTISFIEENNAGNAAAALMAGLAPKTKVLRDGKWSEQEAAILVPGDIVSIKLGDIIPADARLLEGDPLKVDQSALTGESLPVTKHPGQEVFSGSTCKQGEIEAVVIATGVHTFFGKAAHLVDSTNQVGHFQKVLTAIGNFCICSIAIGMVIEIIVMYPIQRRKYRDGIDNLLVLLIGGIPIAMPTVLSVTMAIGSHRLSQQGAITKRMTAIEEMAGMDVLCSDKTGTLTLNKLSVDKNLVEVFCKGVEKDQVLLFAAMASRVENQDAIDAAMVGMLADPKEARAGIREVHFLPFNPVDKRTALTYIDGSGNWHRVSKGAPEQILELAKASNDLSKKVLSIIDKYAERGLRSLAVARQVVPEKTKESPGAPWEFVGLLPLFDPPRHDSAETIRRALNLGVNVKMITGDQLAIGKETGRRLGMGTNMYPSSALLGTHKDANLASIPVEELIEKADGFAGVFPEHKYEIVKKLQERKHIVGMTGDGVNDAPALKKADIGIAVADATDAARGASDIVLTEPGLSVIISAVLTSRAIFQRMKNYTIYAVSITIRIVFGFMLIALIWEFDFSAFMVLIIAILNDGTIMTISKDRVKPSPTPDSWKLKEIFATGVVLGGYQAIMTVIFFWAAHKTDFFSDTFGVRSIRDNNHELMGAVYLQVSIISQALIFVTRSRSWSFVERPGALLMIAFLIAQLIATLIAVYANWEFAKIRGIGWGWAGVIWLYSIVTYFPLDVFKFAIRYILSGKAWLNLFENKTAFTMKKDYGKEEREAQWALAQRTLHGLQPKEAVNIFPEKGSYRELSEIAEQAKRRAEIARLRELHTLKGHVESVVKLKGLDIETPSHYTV
UniProt P19456, 2-948 R913A limits assumed: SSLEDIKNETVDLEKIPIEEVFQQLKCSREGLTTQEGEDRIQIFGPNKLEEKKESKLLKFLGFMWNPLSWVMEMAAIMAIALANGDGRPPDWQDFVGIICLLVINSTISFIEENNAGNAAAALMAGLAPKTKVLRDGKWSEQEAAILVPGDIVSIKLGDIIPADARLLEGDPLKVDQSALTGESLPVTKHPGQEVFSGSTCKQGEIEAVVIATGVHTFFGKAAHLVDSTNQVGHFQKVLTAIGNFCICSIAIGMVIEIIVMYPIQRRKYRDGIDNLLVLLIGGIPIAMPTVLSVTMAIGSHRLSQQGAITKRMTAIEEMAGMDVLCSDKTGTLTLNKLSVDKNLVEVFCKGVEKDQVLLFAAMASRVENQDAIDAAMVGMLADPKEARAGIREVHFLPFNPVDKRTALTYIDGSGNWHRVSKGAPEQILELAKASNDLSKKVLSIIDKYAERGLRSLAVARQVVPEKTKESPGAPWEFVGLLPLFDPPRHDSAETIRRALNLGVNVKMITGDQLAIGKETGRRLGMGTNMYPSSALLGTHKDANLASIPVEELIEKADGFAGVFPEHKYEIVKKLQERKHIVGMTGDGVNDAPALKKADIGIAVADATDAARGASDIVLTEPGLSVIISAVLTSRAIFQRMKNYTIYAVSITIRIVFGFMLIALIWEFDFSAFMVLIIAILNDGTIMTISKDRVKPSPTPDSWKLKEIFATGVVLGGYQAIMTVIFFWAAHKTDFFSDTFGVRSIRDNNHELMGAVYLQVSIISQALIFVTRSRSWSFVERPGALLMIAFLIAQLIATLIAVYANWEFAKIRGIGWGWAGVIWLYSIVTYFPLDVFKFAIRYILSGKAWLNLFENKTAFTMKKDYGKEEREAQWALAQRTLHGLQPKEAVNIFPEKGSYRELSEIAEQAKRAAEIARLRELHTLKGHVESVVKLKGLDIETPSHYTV

Assay [1] concerns the target aha2R880A (AHA2 mutant) (Arabidopsis thaliana, UniProt P19456, R880A). Nature of the assay: ATPase activity assay on yeast plasma-membrane fraction, […] TeA, pH […].
The target in assay [2] is AHA2 (plant plasma membrane H^+-ATPase) (Arabidopsis thaliana, UniProt P19456). Nature of the assay: ATPase activity assay on yeast plasma-membrane fraction expressing AHA2, […] TeA, pH […].
The target in assay [3] is aha2R913A (AHA2 mutant) (Arabidopsis thaliana, UniProt P19456, R913A). Nature of the assay: ATPase activity assay on yeast internal-membrane fraction, […] TeA, pH […] (no inhibition in PM fraction).

With `CCC(C)C1NC(=O)/C(=C(/C)O)C1=O` (stereo not drawn), the “ATPase activity assay on yeast plasma-membrane fraction, 50 uM TeA, pH 7” value in assay [1] is on record as “The inhibitory effect of TeA on the ATPase activity of aha2R880A was more pronounced than on the activity of AHA2”. Moreover, the “% decrease in activity (50 μM)” value in assay [2] is 55 % decrease in activity (50 μM). The molecule further came in with a % inhibition (50 μM) in assay [3] of 91%.
